PubChem BioAssay AID624099, ICCB-Longwood | 2012

Assay: 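Knock-downs relieving repression by E2 of an HPV18 LCR luciferase reporter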 (primary screen)
Cells: human C33A cervical carcinoma cells (HPV-negative) stably expressing BPV1 E2 and an HPV18 LCR luciferase reporter
Reagents: siRNA pool against human genes, 40 nM
Timing: 72 h
Read-out: 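Per-well luciferase luminescence, z-scored on each plate against the plate mean and SD with control wells left out, then averaged across three replicate plates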
Reading the numbers: mean z-score and z-score: higher = stronger reporter signal, weaker E2 silencing
Call rule: 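Hit if mean z-score reaches 2 and two or more of three replicate z-scores also reach 2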
The deposit covers about 21,000 reagents; below is a random part of them. In the full data, 497 (2.4%) were called active. 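Higher z means weaker E2 silencing; only reporter increases were scored, and knock-downs that hurt cell survival may mask genuine repressor factors.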 Unmarked entries are inactive.

| mean z-score | z-score, replicate A | z-score, replicate B | z-score, replicate C | gene symbol | PubChem SID |
| --- | --- | --- | --- | --- | --- |
| -0.21 | -0.29 | -0.38 | 0.02 | STX17 (syntaxin 17) | SID134324591 |
| 0.79 | 0.18 | 1.06 | 1.12 | TMEM186 (transmembrane protein 186) | SID134323965 |
| 0.48 | 0.14 | 0.79 | 0.5 | CLRN3 (clarin 3) | SID134320097 |
| -0.98 | -0.52 | -1.09 | -1.31 | LOC402671 (retired record) | SID134329320 |
| 0.76 | 0.65 | 0.87 | 0.76 | SRP54 (signal recognition particle 54) | SID134310755 |
| 0.75 | 0.7 | 0.45 | 1.08 | CLEC4C (C-type lectin domain family 4 member C) | SID134313762 |
| 0.07 | -0.11 | 0.05 | 0.26 | SLU7 (spliceosome associated SLU7) | SID134321141 |
| -1.59 | -1.61 | -1.51 | -1.66 | SLC4A1AP | SID134324698 |
| -0.16 | -0.18 | 0 | -0.3 | SH3GL1 (SH3 domain containing GRB2 like 1, endophilin A2) | SID134323361 |
| -0.29 | -0.16 | -0.35 | -0.35 | GNB5 (G protein subunit beta 5) | SID134321184 |
| 0.37 | 0.33 | 0.2 | 0.57 | COPS7A (COP9 signalosome subunit 7A) | SID134324505 |
| 1.01 | 0.99 | 1.12 | 0.92 | RLN2 (relaxin 2) | SID134321337 |
| -0.03 | -0.14 | -0.2 | 0.24 | TOR1AIP1 (torsin 1A interacting protein 1) | SID134318109 |
| -1.31 | -1.46 | -1.28 | -1.21 | ANP32A (acidic nuclear phosphoprotein 32 family member A) | SID134320072 |
| 0.41 | 0.34 | 0.36 | 0.53 | DTX2 (deltex E3 ubiquitin ligase 2) | SID134312235 |
| 0.76 | 0.72 | 0.97 | 0.58 | IARS2 (isoleucyl-tRNA synthetase 2, mitochondrial) | SID134324110 |
| 0.07 | 0.18 | 0 | 0.01 | TRIM71 (tripartite motif containing 71) | SID134325703 |
| -0.8 | -0.63 | -0.78 | -1 | RHBDL1 (rhomboid like 1) | SID134311449 |
| 1.06 | 1.47 | 1.1 | 0.62 | GUCA2A (guanylate cyclase activator 2A) | SID134325062 |
| 0.28 | 0.44 | 0.32 | 0.08 | NLGN2 (neuroligin 2) | SID134313693 |
| 0.25 | 0.49 | 0.45 | -0.18 | NEO1 (neogenin 1) | SID134314113 |
| 0.04 | -0.08 | -0.02 | 0.22 | LOC388206 (retired record) | SID134328680 |
| -0.76 | -0.99 | -0.69 | -0.61 | INSL3 (insulin like 3) | SID134323754 |
| -0.42 | -0.57 | -0.57 | -0.12 | ZIC5 (Zic family zinc finger 5) | SID134317882 |
| -0.14 | -0.19 | -0.27 | 0.04 | LOC388193 (retired record) | SID134328632 |
| -0.66 | -0.47 | -0.77 | -0.73 | WASHC5 (WASH complex subunit 5) | SID134324825 |
| -0.65 | -0.71 | -0.95 | -0.28 | EFCAB11 (EF-hand calcium binding domain 11) | SID134319840 |
| 1.34 | 1.27 | 1.13 | 1.62 | SNCA (synuclein alpha) | SID134315468 |
| 0.49 | 0.75 | 0.43 | 0.28 | IFT80 (intraflagellar transport 80) | SID134325776 |
| 0.12 | 0.15 | 0.22 | -0.01 | LOC402641 (RAS like proto-oncogene A pseudogene) | SID134327863 |
| 0.75 | 0.64 | 1.03 | 0.59 | DDAH1 (dimethylarginine dimethylaminohydrolase 1) | SID134313395 |
| 1.06 | 1.2 | 1.04 | 0.94 | LRRC28 (leucine rich repeat containing 28) | SID134323165 |
| -1.14 | -1.08 | -1.35 | -0.98 | MLLT6 (MLLT6, PHD finger containing) | SID134315024 |
| -1.33 | -1.47 | -1.21 | -1.32 | OGG1 (8-oxoguanine DNA glycosylase) | SID134310769 |
| -0.18 | -0.42 | -0.49 | 0.38 | TENT5D (terminal nucleotidyltransferase 5D) | SID134320909 |
| -1.41 | -1.32 | -1.66 | -1.24 | NOC2L (NOC2 like nucleolar associated transcriptional repressor) | SID134324227 |
| 0.08 | -0.04 | 0.12 | 0.17 | MUSTN1 (musculoskeletal, embryonic nuclear protein 1) | SID134329393 |
| 0.25 | -0.26 | -0.06 | 1.08 | SRM (spermidine synthase) | SID134311944 |
| -0.54 | -0.66 | -0.39 | -0.57 | PTMS (parathymosin) | SID134323147 |

Quoted from the listing, 5 entries:
| mean z-score | z-score, replicate A | z-score, replicate B | z-score, replicate C | gene symbol | PubChem SID |
| --- | --- | --- | --- | --- | --- |
| 0.07 | 0.18 | 0 | 0.01 | TRIM71 (tripartite motif containing 71) | SID134325703 |
| -0.8 | -0.63 | -0.78 | -1 | RHBDL1 (rhomboid like 1) | SID134311449 |
| 1.06 | 1.47 | 1.1 | 0.62 | GUCA2A (guanylate cyclase activator 2A) | SID134325062 |
| 0.28 | 0.44 | 0.32 | 0.08 | NLGN2 (neuroligin 2) | SID134313693 |
| 0.25 | 0.49 | 0.45 | -0.18 | NEO1 (neogenin 1) | SID134314113 |
